Measurements as given in paper PMC5754140 (2017).

Biological target: PRV gB ectodomain, soluble (residues A59 to N752, strain HN1201) (Pseudorabies virus (strain HN1201))
Experiment: BLI

Binder | Kd
1H1 Fab (wild type) (Fab, V domains shown, N-linked glycan at N103 of the HCDR3 loop) VH: QVKLQESGAELVKPGASAKAACEASGYTFTSYWIHWVKQRPGQGLDWIGEINTSSGRTNYNERFKNKATLTVDKTSSTAYIQLSSLTSEDSAVYYCAREGFGNQSLDYWGQGTSLTVSS VL: DIILTQSPAIMSASLGERVTLTCTASSSVSSSYLHWYQQKPGSSPKLWIYSTYNLAGAVPPRFSGSGSGTSYSLTISSMEAEDAATYYCQQYHRSPWTFGGGTKLEIK | 0.0033 µM
1H1_NL Fab (N103 in HCDR3 replaced with alanine) (antibody, V domains shown) VH: QVKLQESGAELVKPGASAKAACEASGYTFTSYWIHWVKQRPGQGLDWIGEINTSSGRTNYNERFKNKATLTVDKTSSTAYIQLSSLTSEDSAVYYCAREGFGAQSLDYWGQGTSLTVSS VL: DIILTQSPAIMSASLGERVTLTCTASSSVSSSYLHWYQQKPGSSPKLWIYSTYNLAGAVPPRFSGSGSGTSYSLTISSMEAEDAATYYCQQYHRSPWTFGGGTKLEIK | 3.1 µM
